The entries are a selection whose mix differs from that of the whole data set. Active and inactive are the calls of the source.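 How the source made its calls: active means mean replicate inhibition score of at least 50 and every replicate individually at or above 50; inconclusive means only one of the two criteria met; inactive means mean below 50 and not all replicates reaching 50.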
Experiment: inhibitors of HIV-1 Env-driven cell-cell fusion, primary screen, HeLa-JRFL effector, CEM21 target cells, luciferase (AID 651610);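 further: 0% = plate neutral controls and 100% = maraviroc near 300 nM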
Settings: at 12.3 µM, hits give high values
For `O=[As](O)(c1cccs1)c1cccs1`, the inhibition was inactive: 14.4%.
In the case of `NS(=O)(=O)c1cccc(NC(=O)COC(=O)C(O)(c2ccccc2)c2ccccc2)c1`, the inhibition is reported as inactive: -0.175%.
For `O=P1(Nc2ccc(Br)cn2)COc2ccccc2OC1`, the inhibition was inactive: -9.28%.
In the case of `CN1CCCCC1COC(=O)C1(O)c2ccccc2CCc2ccccc21` (stereo unspecified), the inhibition is reported as inactive: 0.559%.
With `COc1ccccc1OP(C)(=O)Nc1c(C)cccc1C` (stereo unspecified) the inhibition was inactive: -69.7%.
For `O=P1(Nc2ncccn2)COc2ccccc2OC1`, the inhibition was inactive: -12.3%.
For `O=C(O)COc1ccc([As](=O)(O)O)cc1[N+](=O)[O-]`, the inhibition was inactive: 1.94%.
In the case of `Nc1ccccc1[As](=O)(O)c1ccccc1`, the inhibition is reported as inactive: 3.51%.
In the case of `O=P(Nc1nccs1)(Oc1ccccc1)Oc1ccccc1`, the inhibition is reported as inactive: -3.02%.
For `O=C(O)c1cccc(Nc2c([N+](=O)[O-])cc([N+](=O)[O-])cc2[N+](=O)[O-])c1`, the inhibition was inactive: -3.27%.
With `CN(C(=O)Cc1ccccc1)[C@@H]1CC[C@]2(CCCO2)C[C@H]1N1CCCC1` the inhibition was inactive: -160%.
In the case of `N#CCCN(C(=O)COC(=O)C(O)(c1ccccc1)c1ccccc1)c1ccc(F)cc1`, the inhibition is reported as inactive: -26.1%.
In the case of `CC1=NCCc2c1[nH]c1ccccc21.O=[N+]([O-])c1cc([N+](=O)[O-])c(O)c([N+](=O)[O-])c1`, the inhibition is reported as inactive: 3.07%.
With `CN(C(=O)Cc1ccc(Cl)c(Cl)c1)[C@H]1CC[C@@]2(CCCO2)C[C@@H]1N1CCCC1` the inhibition was inactive: 7.28%.
In the case of `O=[N+]([O-])c1ccc2c(c1)nnn2O`, the inhibition is reported as inactive: -5.9%.
For `CN(C)C(=O)c1cc([N+](=O)[O-])cc2c1-c1c(cc([N+](=O)[O-])cc1[N+](=O)[O-])C2=O`, the inhibition was inactive: -65.9%.
For `NC(=O)Nc1ccc([As](=O)(O)O)cc1`, the inhibition was inactive: -1.72%.
In the case of `O=[As](O)(c1cccc(O)c1)c1cccc(O)c1`, the inhibition is reported as inactive: 1.09%.
In the case of `CCOC(=O)c1ccc(NP(C)(=O)Oc2cc(C)cc(C)c2)cc1` (stereo unspecified), the inhibition is reported as inactive: -12.3%.
For `O=C(OC1CN2CCC1CC2)c1ccc(Cl)cc1` (stereo unspecified), the inhibition was inactive: -5.87%.
In the case of `COc1ccccc1OP(C)(=O)Nc1cccc(Br)c1` (stereo unspecified), the inhibition is reported as inactive: 30.8%.
In the case of `CS(=O)(=O)c1ccc(Cl)c(NC(=O)COC(=O)C(O)(c2ccccc2)c2ccccc2)c1`, the inhibition is reported as inactive: 9%.
With `O=[As](O)(O)c1cccnc1` the inhibition was inactive: 8.28%.
With `COc1cc(C(=O)NCC2(N3CCOCC3)CCCCC2)cc(Cl)c1OC(C)C` the inhibition was inactive: 7.07%.
With `CCOP(=O)(Nc1cccc2ccccc12)OCC` the inhibition was inactive: 28.6%.
With `Cc1ccc(NCCc2c([N+](=O)[O-])cc([N+](=O)[O-])cc2[N+](=O)[O-])cc1` the inhibition was inactive: -1.02%.
With `Nc1cccc2c([As](=O)(O)O)cccc12` the inhibition was inactive: 8.52%.
For `CP(=O)(Nc1cccc(Br)c1)Oc1ccccc1` (stereo unspecified), the inhibition was inactive: 3.45%.
With `CCCOP(=S)(Nc1nc(N)cc(=O)[nH]1)OCCC` the inhibition was inactive: -16.2%.
For `O=P1(N(CCCl)CCCl)Nc2ccccc2N1`, the inhibition was inactive: 11.9%.
For `O=P1(N(CCCl)CCCl)OCCCN1CCCl` (stereo unspecified), the inhibition was inactive: -21.7%.
In the case of `COc1cc(I)ccc1[As](=O)(O)O`, the inhibition is reported as inactive: 6.13%.
In the case of `COc1ccc2nc(NP(=O)(c3ccccc3)c3ccccc3)sc2c1`, the inhibition is reported as inactive: 6.24%.
With `Cc1c2c(nc3ccccc13)SC(C(Cl)Cl)C2` (stereo unspecified) the inhibition was inactive: -1.26%.
In the case of `Cc1cc(=O)[nH]c(N[N+](=O)[O-])n1`, the inhibition is reported as inactive: 0.086%.
In the case of `CCN(CC)CCCOC(=O)C(O)(c1ccccc1)c1ccccc1`, the inhibition is reported as inactive: 10.1%.
In the case of `O=[N+]([O-])c1cc(Oc2ccc([N+](=O)[O-])cc2C(F)(F)F)cc([N+](=O)[O-])c1`, the inhibition is reported as inactive: 0.982%.
In the case of `COc1ccccc1-c1ccccn1.O=[N+]([O-])c1cc([N+](=O)[O-])c(O)c([N+](=O)[O-])c1`, the inhibition is reported as inactive: 9.96%.
For `COc1ccc(N/C(=N/P(=O)(N2CCOCC2)N2CCOCC2)N2CCOCC2)cc1`, the inhibition was inactive: 11%.
For `Cc1cccc(C)c1OP(C)(N)=O` (stereo unspecified), the inhibition was inactive: -9.93%.
With `Cc1ccc(OP(=O)(Nc2ccc([N+](=O)[O-])cn2)Oc2ccc(C)cc2)cc1` the inhibition was inactive: -1.32%.
For `[N-]=[N+]=NC1CCCCC1NC(=O)c1cc([N+](=O)[O-])cc([N+](=O)[O-])c1` (stereo unspecified), the inhibition was inactive: -0.433%.
In the case of `O=[N+]([O-])c1ccc2c(c1)C=Nc1ccccc1O2`, the inhibition is reported as inactive: -13%.
With `Cc1ccc2nc3c(c(C)c2c1)CC(C(Cl)Cl)S3` (stereo unspecified) the inhibition was inactive: -9.17%.
For `O=[N+]([O-])c1cc([N+](=O)[O-])c(Nc2cccnc2)c([N+](=O)[O-])c1`, the inhibition was inactive: 23.4%.
With `O=[N+]([O-])c1ccc(-c2cc([N+](=O)[O-])c(O)c([N+](=O)[O-])c2)cc1` the inhibition was inactive: -20.2%.
With `COc1cc(C(=O)NCC2(N3CCOCC3)CCCCC2)ccc1OCC(C)C` the inhibition was inactive: 8.62%.
In the case of `O=[As](O)(c1ccc(O)cc1)c1ccccc1O`, the inhibition is reported as inactive: -9.13%.
In the case of `C[As](=O)(O)c1cccc(C(=O)O)c1`, the inhibition is reported as inactive: -10.8%.
With `COc1ccc(OP(C)(=O)Nc2cccc(F)c2)cc1` (stereo unspecified) the inhibition was inactive: -17.9%.
In the case of `CC(C)NC(=O)NP(=O)(Oc1ccccc1)Oc1ccccc1`, the inhibition is reported as inactive: -52.1%.
In the case of `COc1ccccc1OP(C)(=O)Nc1cc(Cl)ccc1C` (stereo unspecified), the inhibition is reported as inactive: 28.1%.
In the case of `O=C(OC1CN2CCC1CC2)c1cccc2[nH]cnc12` (stereo unspecified), the inhibition is reported as inactive: -6.73%.
With `Cc1cc(C)cc(OP(C)(N)=O)c1` (stereo unspecified) the inhibition was inactive: 2.54%.
With `ClCCSc1nnc(-c2cccnc2)o1` the inhibition was inactive: -148%.
In the case of `CCOC(=O)c1ccc(NP(C)(=O)Oc2ccccc2)cc1` (stereo unspecified), the inhibition is reported as inactive: 11.7%.
In the case of `COC(=O)C1(C)COP(=O)(N2CCCCCC2)OC1` (stereo unspecified), the inhibition is reported as inactive: -13.1%.
For `Cc1ccc(NP(C)(=O)Oc2ccccc2)c(C)c1` (stereo unspecified), the inhibition was inactive: -14.2%.
With `CC(C)c1ccc(OP(=O)(Nc2ccccn2)Oc2ccccc2F)cc1` (stereo unspecified) the inhibition was inactive: -11.2%.
With `Cc1cc(SC(NC(=O)c2ccccc2)C(Cl)(Cl)Cl)nc(C(C)C)n1` (stereo unspecified) the inhibition was inactive: -1.82%.
In the case of `CCCCOc1ccc(C(=O)NCC2(N3CCCCC3)CCCCC2)cc1OC`, the inhibition is reported as inactive: 17.5%.
In the case of `O=C(O)C(=O)c1ccc(N(CCCl)CCCl)cc1.c1ccc(Nc2ccccc2)cc1`, the inhibition is reported as inactive: 36.1%.
In the case of `CCOC(=O)Nc1ccc([As](=O)(O)O)c(O)c1`, the inhibition is reported as inactive: -12.7%.
For `CC1CCNP(=O)(N(CCCl)CCCl)O1` (stereo unspecified), the inhibition was inactive: -2.49%.
In the case of `COc1ccccc1OP(C)(=O)Nc1ccccc1` (stereo unspecified), the inhibition is reported as inactive: -3.04%.
With `Cc1cc(SC(NC=O)C(Cl)(Cl)Cl)ncn1` (stereo unspecified) the inhibition was inactive: 4.84%.
With `O=P(Nc1ccccn1)(c1cccc2ccccc12)c1cccc2ccccc12` the inhibition was inactive: 5.61%.
In the case of `O=[N+]([O-])c1ccc(Nc2ccc(Oc3ccc([N+](=O)[O-])cc3[N+](=O)[O-])cc2)c([N+](=O)[O-])c1`, the inhibition is reported as inactive: -27.9%.
For `CCOC(=O)Nc1cccc([As](=O)(O)O)c1`, the inhibition was inactive: -15.3%.
For `Cc1cc(C)cc(OP(C)(=O)Nc2ccc(SC(F)(F)F)cc2)c1` (stereo unspecified), the inhibition was inactive: 27.2%.
With `O=C(Nc1ccncc1[N+](=O)[O-])c1ccc([N+](=O)[O-])cc1[N+](=O)[O-]` the inhibition was inactive: -22.4%.
For `O=C(COc1ccccc1)OC1CN2CCC1CC2` (stereo unspecified), the inhibition was inactive: -32.5%.
With `CCc1ccc(OP(C)(=O)N2CCN(c3ccc([N+](=O)[O-])cc3)CC2)cc1` (stereo unspecified) the inhibition was inactive: 8.17%.
For `COC(=O)C1(C)COP(=O)(N2CCCC2)OC1` (stereo unspecified), the inhibition was inactive: -2.89%.
In the case of `CP(=O)(Oc1ccccc1)OC(c1ccccc1)C(F)(F)F` (stereo unspecified), the inhibition is reported as inactive: 13.9%.
For `CP(=O)(Nc1ccc(SC(F)(F)F)cc1)Oc1ccc(Cl)cc1` (stereo unspecified), the inhibition was inactive: 13.3%.
In the case of `Cc1cccc(C)c1OP(C)(=O)Nc1ccc(SC(F)(F)F)cc1` (stereo unspecified), the inhibition is reported as inactive: 16.3%.
With `CCC(C)N(CC(C)C)C(=S)SC(NC(C)=O)C(Cl)(Cl)Cl` (stereo unspecified) the inhibition was inactive: 4.12%.
In the case of `O=C(OC1CN2CCC1CC2)c1cccc([N+](=O)[O-])c1` (stereo unspecified), the inhibition is reported as inactive: 1.45%.
With `O=[N+]([O-])c1cc([N+](=O)[O-])c(O)c([N+](=O)[O-])c1.c1ccc(Oc2ccncc2)cc1` the inhibition was inactive: -0.392%.
For `CCOC(=O)c1ccc(NC(=O)C(C)(CCl)SC)cc1` (stereo unspecified), the inhibition was inactive: -4.24%.

From PubChem BioAssay AID651610 (Broad Institute, 2012)
